From PubChem BioAssay AID485395 (ICCB-Longwood Screening Facility, Harvard Medical School, 2010)
This is a selection; strong and weak results do not stand in their true shares. Calls of active or inactive are those of the source. No stated cut-off is given here; in the data, active means inhibition above about 25% (passing the limit was not always enough); inactive means the rest.

These compounds were tested on replicative DNA helicase (DnaC/DnaB), Staphylococcus aureus (assay: inhibitors of S. aureus replicative helicase, primary screen, biochemical, fluorescence unwinding readout (AID 485395;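 further: 0% = mean of negative control wells and 100% = mean of positive control wells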)). Conditions: purified S. aureus helicase, fluorescence unwinding assay; active compounds read high; concentration not given here.

SMILES	inhibition
CC(=O)OC1(C#N)CN2CCC1CC2 (stereo unspecified)	inactive: 8%
Nc1nonc1OCc1nonc1COc1nonc1N	inactive: 39%
C=CCN1CCN(CCOC(=O)C(O)(c2ccccc2)c2ccccc2)CC1	inactive: -7%
Cc1ccccc1NP(C)(=O)Nc1ccccc1C	inactive: 25%
CC(=O)OC1CN2CCC1C(c1ccccc1)C2 (stereo unspecified)	inactive: -2%
O=P(Nc1nccs1)(c1ccccc1)c1ccccc1	inactive: -6%
O=C(OCCN1CCN(CCOCc2ccccc2)CC1)C(O)(c1ccccc1)c1ccccc1	inactive: -4%
O=P1(Nc2nncs2)C=C(c2ccccc2)SC(c2ccccc2)=C1	inactive: -5%
Cc1cc(NC2=NC3C(C(=O)N(C)C(=O)N3C)N2C)n(-c2ccccc2)n1 (stereo unspecified)	inactive: -12%
O=P1(Nc2nc3ccc(Cl)cc3s2)COc2ccccc2O1 (stereo unspecified)	inactive: 9%
CC1CCC(C(C)C)C(OP(=O)(Nc2nccs2)c2ccccc2)C1 (stereo unspecified)	inactive: -4%
COC(=O)c1cc2c(s1)N=C(c1ccccc1)N(C)P2(=O)N1CCOCC1 (stereo unspecified)	inactive: -13%
COc1cc2c(cc1NP(C)(=O)Oc1ccccc1)oc1ccccc12 (stereo unspecified)	inactive: 1%
O=C(OCC1CN(Cc2ccccc2)CCO1)C(O)(c1ccccc1)c1ccccc1 (stereo unspecified)	inactive: 7%
CCOP(=Nc1nc2ccccc2n2nnnc12)(OCC)OCC	inactive: 3%
O=C(COC(=O)C(O)(c1ccccc1)c1ccccc1)N1CCCCC1	inactive: 15%
CP(=O)(Nc1ccccn1)Oc1ccccc1 (stereo unspecified)	inactive: 9%
CCOP(OCC)N1CCOCC1	inactive: -2%
CP(=O)(Nc1ccc(Cl)cc1)Oc1ccc(F)cc1 (stereo unspecified)	inactive: 1%
CCc1ccc(OP(C)(=O)Nc2cccnc2)cc1 (stereo unspecified)	inactive: 3%
CCc1nc2c(n1)c1c(non1O)c1c2no[n+]1[O-]	inactive: -2%
CCN1C(=O)N(c2ccccc2)P(=S)(OC)c2cc3c(cc21)OCCO3 (stereo unspecified)	inactive: -11%
COc1ccccc1OP(C)(=O)Nc1ccccc1 (stereo unspecified)	inactive: -5%
CP(=O)(Nc1ccc(Cl)cc1)Oc1ccccc1 (stereo unspecified)	inactive: 0%
O=C(O)CCC(=O)N=S(c1ccccc1)c1ccccc1.O=[N+]([O-])c1cc([N+](=O)[O-])c(O)c([N+](=O)[O-])c1	inactive: -17%
CCn1cccc/c1=N\P1(=S)OCCO1	inactive: 17%

SMILES	inhibition
Cc1cccc(NP(C)(=O)Oc2ccccc2)c1 (stereo unspecified)	inactive: 12%
CCOC(=O)c1ccc(NP(C)(=O)Oc2ccc(OC)cc2)cc1 (stereo unspecified)	inactive: -3%
CP(=O)(NC(=O)Nc1ccccc1)Oc1ccccc1 (stereo unspecified)	inactive: -12%
COP1(=S)c2c(C)nn(-c3ccccc3)c2N=C(c2ccccc2)N1C1CC1 (stereo unspecified)	inactive: 12%
O=C(OC1CN2CCC1CC2)C12CC3CC(CC(C3)C1)C2 (stereo unspecified)	inactive: 3%
O=P1(Nc2nccs2)CC=CC1	inactive: -6%
CN(C)P1(=O)Nc2ccccc2S1 (stereo unspecified)	inactive: 15%
COP1(=S)N=C2c3ccccc3CN2c2cc(N(C)C)ccc21 (stereo unspecified)	inactive: 7%
Nc1nonc1OCCOc1nonc1N	inactive: 2%
Cc1cc(C)cc(OP(C)(=O)NCc2ccccc2)c1 (stereo unspecified)	inactive: 3%
O=C(O)C1(O)c2ccccc2-c2ccccc21	inactive: 12%
CC1=Nc2ccc(C(F)(F)F)cc2C1(C)C	inactive: -11%
CCOP1(=S)c2c(C)nn(CCC#N)c2N=C(c2ccc(F)cc2)N1C (stereo unspecified)	inactive: 7%
O=P1(Nc2nc3ccc(Cl)cc3s2)COc2ccccc2OC1	inactive: 25%
NC(=O)COC(=O)C1(O)c2ccccc2-c2ccccc21	inactive: 4%
COc1cc(-n2cnnn2)ccc1-n1cnnn1	inactive: 10%
Cc1cccc(OCC(=O)OC2CN3CCC2CC3)c1 (stereo unspecified)	inactive: 11%
Nc1nonc1-c1no[n+]([O-])c1-c1nonc1N	inactive: 15%
O=P1(Nc2ccccn2)COc2ccccc2OC1	inactive: 8%
CC1(C)COP(=S)(N(C2=NCCC2)c2ccccc2)OC1	inactive: 19%
CCSP(=O)(c1ccccc1)c1ccccc1	inactive: -11%
Cc1cc(C)cc(OP(C)(=O)Nc2ccc(OC(C)C)cc2)c1 (stereo unspecified)	inactive: 6%
CP(=O)(N1CCOCC1)N1CCOCC1	inactive: -5%
Cc1nn(CCC#N)c2c1P(=O)(Nc1ccccc1Cl)N(C)C(c1ccc(F)cc1)=N2 (stereo unspecified)	inactive: -5%
Cc1nn(-c2ccccc2)c2c1P(=O)(N1CCOCC1)N(C)C(c1ccccc1)=N2 (stereo unspecified)	inactive: 7%
